Measurements reported in PubChem BioAssay AID504761 (Drosophila RNAi Screening Center, 2011)
In all, the deposit lists about 22,000 reagents; this is an unselected part of those that have a named target and a result. Of all reagents, 116 (0.52%) are marked active. 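Calls depend on retest data that are not deposited; infection was ranked per plate without normalising between plates; the unit of the infection score is not given.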 Raw values are not corrected between plates. Not stated in the record: the amount of reagent, the time to read-out.

- Assay: 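Insect host genes that dengue virus relies on to spread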 (primary screen)
- Cell system: D.Mel-2 cells from Drosophila
- Reagents: long dsRNA against Drosophila genes
- Treatment: infection with dengue virus type 2; dose and infection time not stated
- Read-out: 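Cells stained for dengue envelope protein and imaged; percent of infected cells per well on duplicate plates, ranked by infection, with stained nuclei counted for cell number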
- Scale: infection score: higher = more virus-infected cells; cell count: higher = more cells in the well
- Call rule: 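Very low infection ranking in both replicate wells (chance probability at most 0.065), then a retest showing infection dropped 1.5-fold or more at p below 0.05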
- Calls: active = confirmed: knock-down lowers infection; inactive = not picked or not confirmed

| target | amplicon | infection score, replicate 1 | infection score, replicate 2 | cell count, replicate 1 | cell count, replicate 2 | Outcome |
| --- | --- | --- | --- | --- | --- | --- |
| CG15478 | DRSC18057 | 9.15 | 13.9 | 6003 | 6134 | inactive |
| CG15478 | DRSC25277 | 1.38 | 9.52 | 6499 | 5980 | inactive |
| Remo | DRSC19710 | 8.1 | 12.3 | 3344 | 3303 | inactive |
| gsb | DRSC04692 | 16.8 | 17.3 | 6093 | 5543 | inactive |
| gsb | DRSC25821 | 10.8 | 2.37 | 4405 | 5527 | inactive |
| jumu | DRSC16651 | 17.9 | 21.4 | 4459 | 4638 | inactive |
| mEFTu1 | DRSC06959 | 17.7 | 19.7 | 5063 | 5470 | inactive |
| mEFTu1 | DRSC29468 | 21.2 | – | 5140 | 428 | inactive |
| CG7514 | DRSC08597 | 1.08 | 0.97 | 6086 | 6395 | inactive |
| CG7514 | DRSC25670 | 4.67 | 8.88 | 7069 | 5596 | inactive |
| Nepl3 | DRSC02681 | 11.8 | 29.1 | 5573 | 4937 | inactive |
| Kah | DRSC07887 | 3.39 | 9.92 | 6050 | 5909 | inactive |
| Kah | DRSC08515 | 3.85 | 2.27 | 6389 | 6091 | inactive |
| Kah | DRSC25608 | 0.85 | 1.53 | 6735 | 6672 | inactive |
| dgt3 | DRSC04349 | 15 | 10.5 | 6084 | 6419 | inactive |
| CG18581 | DRSC10324 | 7.33 | 0.24 | 6114 | 7152 | inactive |
| CG13760 | DRSC18617 | 1.55 | 9.07 | 6572 | 6449 | inactive |
| CG14841 | DRSC14965 | 1.37 | 6.76 | 6415 | 6822 | inactive |
| CG14841 | DRSC27235 | 4.87 | 4.47 | 6956 | 6337 | inactive |
| Dyb | DRSC07208 | 2.07 | 2.86 | 6266 | 6373 | inactive |
| Dyb | DRSC22862 | 0.43 | 16.2 | 6113 | 2889 | inactive |
| Dyb | DRSC29699 | 4.6 | 7.23 | 6285 | 5322 | inactive |
| Gas41 | DRSC03156 | 14.7 | 9.86 | 5839 | 5882 | inactive |
| QC | DRSC09736 | 3.29 | 2.2 | 6710 | 7103 | inactive |
| Nacalpha | DRSC07477 | 26.8 | 17.7 | 3835 | 4176 | inactive |
| Nacalpha | DRSC25351 | 3.03 | 7.88 | 4165 | 4567 | inactive |
| CG6867 | DRSC20013 | 1.27 | 0.4 | 6231 | 6457 | inactive |
| CG6867 | DRSC25889 | 3.37 | 2.15 | 6322 | 6194 | inactive |
| CG14013 | DRSC02344 | 4.52 | 7 | 5753 | 6812 | inactive |
| a | DRSC04668 | 4.51 | 12.9 | 6828 | 6888 | inactive |
| a | DRSC27708 | 7.59 | 11.4 | 6533 | 6887 | inactive |
| CG31705 | DRSC01991 | 47.4 | 25.4 | 957 | 717 | inactive |
| CG31705 | DRSC30021 | 1.67 | 18.9 | 1320 | 1531 | inactive |
| IntS12 | DRSC15818 | 7.29 | 3.94 | 4004 | 4443 | inactive |
| CG8349 | DRSC03083 | 4.49 | 14.2 | 5496 | 5425 | inactive |
| Lsp1gamma | DRSC08672 | 3.38 | 6.64 | 6479 | 6237 | inactive |
| Lsp1gamma | DRSC25710 | 5.25 | 6.96 | 5622 | 6053 | inactive |
| CycY | DRSC02420 | 14 | 11.2 | 6121 | 6164 | inactive |
| CycY | DRSC25092 | 2.83 | 5.14 | 5825 | 5856 | inactive |
| Tim23 | DRSC21240 | 16.3 | 11.8 | 6115 | 5837 | inactive |
| CG1572 | DRSC19686 | 3.44 | 14.6 | 6402 | 4993 | inactive |
| Ugt36D1 | DRSC02600 | 16.8 | 8.75 | 6280 | 6008 | inactive |
| CG42355 | DRSC07967 | 1.53 | 0.22 | 5758 | 5805 | inactive |
| CG31178 | DRSC14590 | 10.1 | 6.11 | 3027 | 6875 | inactive |
| CG33346 | DRSC22898 | 1.07 | 9.51 | 5876 | 5613 | inactive |
| Gas8 | DRSC22884 | 0.86 | 1.39 | 6161 | 7037 | inactive |
| Gas8 | DRSC29253 | 13.3 | 2.2 | 5615 | 363 | inactive |
| Chi | DRSC04602 | 5.22 | 28.8 | 6243 | 5368 | inactive |
| Chi | DRSC28484 | 2.51 | 13.4 | 1197 | 2405 | inactive |
| Sps2 | DRSC03441 | 27.3 | 5 | 5806 | 5616 | inactive |
| CG11882 | DRSC14425 | 5.4 | 2.9 | 6353 | 6967 | inactive |
| CG11882 | DRSC27909 | 21.8 | 2.64 | 5129 | 7351 | inactive |
| CG13284 | DRSC02256 | 10.8 | 2.27 | 1918 | 6923 | inactive |
| Ist1 | DRSC09697 | 4.88 | 9.01 | 5084 | 5629 | inactive |
| Ist1 | DRSC25231 | 13.7 | 18.7 | 5676 | 5636 | inactive |
| CG9646 | DRSC07342 | 5.91 | 5.69 | 6363 | 6347 | inactive |
| l(3)neo43 | DRSC14988 | 5.23 | 11.8 | 5999 | 6178 | inactive |
| mid | DRSC02977 | 3.77 | 6.62 | 6026 | 6313 | inactive |
| mid | DRSC21493 | 0.39 | 15.4 | 5934 | 4878 | inactive |
| mid | DRSC25557 | 4.18 | 4.46 | 5810 | 6071 | inactive |

Laid out differently: 4 of the entries above
{"target": "CG6867", "amplicon": "DRSC25889", "infection score, replicate 1": 3.37, "infection score, replicate 2": 2.15, "cell count, replicate 1": 6322, "cell count, replicate 2": 6194, "Outcome": "inactive"}
{"target": "CG14013", "amplicon": "DRSC02344", "infection score, replicate 1": 4.52, "infection score, replicate 2": 7, "cell count, replicate 1": 5753, "cell count, replicate 2": 6812, "Outcome": "inactive"}
{"target": "a", "amplicon": "DRSC04668", "infection score, replicate 1": 4.51, "infection score, replicate 2": 12.9, "cell count, replicate 1": 6828, "cell count, replicate 2": 6888, "Outcome": "inactive"}
{"target": "a", "amplicon": "DRSC27708", "infection score, replicate 1": 7.59, "infection score, replicate 2": 11.4, "cell count, replicate 1": 6533, "cell count, replicate 2": 6887, "Outcome": "inactive"}
